The results in this text go back to PMC7971878, “ADAM17 is an essential attachment factor for classical swine fever virus” (2021).

The test has as its target chicken ADAM17 (cADAM17), flag-tagged, stably expressed in PK15 ADAM17-KO cells (chicken). In words: flow cytometry on cells. For orientation: A flow cytometer gives signals particle by particle.

Take “CSFV E2 extracellular domain fused with Fc tag at the C-terminus (sE2-Fc) (Fc fusion)”: the binding efficiency as compared with pADAM17 was 20%.
